Data source: PubChem BioAssay AID624099 (ICCB-Longwood, 2012)
In all, the deposit lists about 21,000 reagents; shown is a part drawn at random. 497 of all reagents (2.4%) were called active. 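Higher z means weaker E2 silencing; only reporter increases were scored, and knock-downs that hurt cell survival may mask genuine repressor factors.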

Test: 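Host factors E2 relies on to silence an HPV18 LCR reporter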 (primary screen)
Cells: human C33A cervical carcinoma cells (HPV-negative) stably expressing BPV1 E2 and an HPV18 LCR luciferase reporter
Knock-down reagent: siRNA pool against human genes, 40 nM
Duration: 72 h
Detection: 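Per-well luciferase luminescence, z-scored on each plate against the plate mean and SD with control wells left out, then averaged across three replicate plates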
Direction: mean z-score and z-score: higher = stronger reporter signal, weaker E2 silencing
Hit rule: 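Hit if mean z-score reaches 2 and two or more of three replicate z-scores also reach 2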

no.	Gene	mean z-score	z-score, replicate A	z-score, replicate B	z-score, replicate C	activity call
1	KLK5 (kallikrein related peptidase 5)	0.01	0.2	-0.15	-0.01	inactive
2	ZNF175 (zinc finger protein 175)	-0.01	-0.19	0.16	-0.01	inactive
3	COMMD5 (COMM domain containing 5)	-0.43	-0.58	-0.67	-0.04	inactive
4	TPRX1 (tetrapeptide repeat homeobox 1)	-0.24	0.06	-0.36	-0.42	inactive
5	LOC340765 (retired record)	0.63	0.09	0.8	1	inactive
6	TRPM5	-0.1	0.23	-0.31	-0.23	inactive
7	LOC391352 (retired record)	0.52	1.34	0.49	-0.25	inactive
8	OLR1 (oxidized low density lipoprotein receptor 1)	-0.1	-0.04	0.04	-0.3	inactive
9	GDF3 (growth differentiation factor 3)	-0.45	-0.5	-0.64	-0.21	inactive
10	KRTAP20-1 (keratin associated protein 20-1)	0.27	0.2	0.17	0.43	inactive
11	MCL1 (MCL1 apoptosis regulator, BCL2 family member)	-0.2	0.27	-0.01	-0.87	inactive
12	AKIRIN2 (akirin 2)	-0.25	-0.6	-0.35	0.19	inactive
13	TEX29 (testis expressed 29)	-1.69	-0.96	-2.11	-2.01	inactive
14	PPFIA2 (PPFI scaffold protein A2)	-0.81	-0.75	-0.95	-0.75	inactive
15	C1QTNF4 (C1q and TNF related 4)	0.67	0.8	0.87	0.32	inactive
16	PROP1 (PROP paired-like homeobox 1)	0.17	-0.04	0.45	0.1	inactive
17	LINC02946 (long independently transcribed non-coding RNA 2946)	-1.21	-1.43	-0.91	-1.3	inactive
18	TSPAN16 (tetraspanin 16)	-0.42	-0.33	-0.6	-0.34	inactive
19	ZNF239 (zinc finger protein 239)	0.88	1.05	0.86	0.73	inactive
20	S100A6 (S100 calcium binding protein A6)	-0.26	-0.12	-0.42	-0.25	inactive
21	BLTP1 (bridge-like lipid transfer protein family member 1)	0.09	0.16	-0.07	0.17	inactive
22	EXOC3L1 (exocyst complex component 3 like 1)	-0.62	-0.78	-0.41	-0.67	inactive
23	FUZ (fuzzy planar cell polarity protein)	1.54	1.9	1.57	1.15	inactive
24	SERPINB2 (serpin family B member 2)	-0.07	0.02	-0.31	0.08	inactive
25	MYNN (myoneurin)	-0.31	-0.69	-0.34	0.1	inactive
26	TBX5 (T-box transcription factor 5)	-0.07	-0.25	-0.14	0.19	inactive

Limited to “z-score, replicate B”, for 7 of the entries above:
COMMD5 (COMM domain containing 5): -0.67
TPRX1 (tetrapeptide repeat homeobox 1): -0.36
LOC340765 (retired record): 0.8
TRPM5: -0.31
LOC391352 (retired record): 0.49
OLR1 (oxidized low density lipoprotein receptor 1): 0.04
GDF3 (growth differentiation factor 3): -0.64

Next entries follow.
no.	Gene	mean z-score	z-score, replicate A	z-score, replicate B	z-score, replicate C	activity call
27	LOC391427 (retired record)	-0.68	-1.04	-0.64	-0.37	inactive
28	DDAH1 (dimethylarginine dimethylaminohydrolase 1)	0.75	0.64	1.03	0.59	inactive
29	CYTH4 (cytohesin 4)	-0.7	-0.52	-0.8	-0.79	inactive
30	SSH2 (slingshot protein phosphatase 2)	-0.55	-0.85	-0.49	-0.31	inactive
31	H2BC8 (H2B clustered histone 8)	0.39	-0.1	0.63	0.63	inactive
32	DMAP1 (DNA methyltransferase 1 associated protein 1)	-0.51	-0.19	-0.48	-0.86	inactive
33	RPS19BP1 (ribosomal protein S19 binding protein 1)	-0.75	-0.75	-0.83	-0.68	inactive
34	CARD8 (caspase recruitment domain family member 8)	1.98	1.52	1.77	2.66	inactive
35	CMTM3 (CKLF like MARVEL transmembrane domain containing 3)	0.75	0.72	0.63	0.91	inactive
36	SLC10A7	2.05	1.67	2.46	2.03	active
37	PTK6 (protein tyrosine kinase 6)	0.97	1.25	0.75	0.91	inactive
38	LOC387649 (retired record)	-0.39	-0.72	-0.38	-0.07	inactive
39	ATP12A (ATPase H+/K+ transporting non-gastric alpha2 subunit)	-0.48	-0.3	-0.51	-0.62	inactive
40	MIB1 (MIB E3 ubiquitin protein ligase 1)	1.49	1.81	1.12	1.54	inactive
41	SLC28A2	1.93	1.92	1.8	2.06	inactive
42	DBF4 (DBF4-CDC7 kinase regulatory subunit)	-0.19	-0.52	-0.15	0.1	inactive
43	MTX2 (metaxin 2)	0.56	0.69	0.38	0.62	inactive
44	GOLT1A (golgi transport 1A)	-0.06	-0.28	0.24	-0.14	inactive
45	TUT4 (terminal uridylyl transferase 4)	-0.46	-0.62	-0.53	-0.24	inactive
46	SLC51A	-0.29	-0.71	-0.52	0.37	inactive
47	PAK3 (p21 (RAC1) activated kinase 3)	0.28	0.19	-0.05	0.7	inactive
48	LINC00691 (long independently transcribed non-coding RNA 691)	-0.09	0.3	-0.24	-0.32	inactive
49	MARS1 (methionyl-tRNA synthetase 1)	-0.39	-0.23	-0.72	-0.22	inactive
50	TRMT10A (tRNA methyltransferase 10A)	-1.21	-1.11	-1.3	-1.22	inactive
51	CRLF1 (cytokine receptor like factor 1)	-0.52	-0.59	-0.52	-0.43	inactive
52	DMPK (DM1 protein kinase)	-1.9	-1.21	-2.09	-2.38	inactive
53	SMIM13 (small integral membrane protein 13)	0.98	0.71	1.25	0.99	inactive
54	NGDN (neuroguidin)	-1.54	-1.64	-1.61	-1.37	inactive
55	MPV17 (mitochondrial inner membrane protein MPV17)	-0.66	-0.76	-0.59	-0.63	inactive
56	BCORP1 (BCL6 corepressor pseudogene 1)	0.65	0.5	0.77	0.69	inactive
57	PYCR2 (pyrroline-5-carboxylate reductase 2)	3.08	3.42	2.39	3.42	active
